Measurements as given in PubChem BioAssay AID720596 (The Scripps Research Institute Molecular Screening Center, 2013).
The entries are a selection whose mix differs from that of the whole data set. The source made the active and inactive calls. Cut-off read from the data, not from the text of the source: active = inhibition above about 24%; inactive = the rest.

target: Major prion protein (Homo sapiens) (UniProt P04156); assay: inhibitors of human cell surface prion protein PrPC, primary screen, cell-based, TR-FRET (AID 720596); settings: TR-FRET read-out, at 13.8 µM, hits give high values; note: 0% = median of the test wells and 100% = reference compound wells

Row | SMILES | inhibition
1 | CCCCn1nnnc1C(c1cccc(OC)c1OC)N1CCC(n2c(=O)[nH]c3ccccc32)CC1 (stereo not given) | inactive: 3.76%
2 | O=c1[nH]c2ccccc2n1C1CCN(C(c2cccs2)c2nnnn2C2CCCC2)CC1 (stereo not given) | inactive: 14.9%
3 | O=C(OC1CN2CCC1CC2)C1c2ccccc2C=Cc2ccccc21 (stereo not given) | inactive: -7.59%
4 | N/C(=N\O)c1c(N)no[n+]1[O-] | inactive: -3.37%
5 | CCOC(=O)N1CCC(Nc2ccc(C)cc2)CC1 | inactive: -4.93%
6 | COc1cccc(C(c2nnnn2C(C)(C)C)N2CCC(n3c(=O)[nH]c4ccccc43)CC2)c1OC (stereo not given) | inactive: 8.98%
7 | O=c1[nH]c2ccccc2n1C1CCN(C(c2ccnc3ccccc23)c2nnnn2C2CCCC2)CC1 (stereo not given) | inactive: 4.57%
8 | COc1ccc(C(=O)NCC2(N3CCOCC3)CCCCC2)cc1OC | inactive: -4.69%
9 | NC(=O)C1(Nc2ccccc2)CCN(Cc2ccccc2)CC1 | inactive: -7.15%
10 | O=c1[nH]c2ccccc2n1C1CCN(C(c2cccs2)c2nnnn2C2CCCCC2)CC1 (stereo not given) | inactive: 5.05%
11 | O=C(NCC1(N2CCOCC2)CCCCC1)c1cc(Br)ccc1Cl | inactive: -8%
12 | COc1cc(C(=O)NCC2(N3CCOCC3)CCCCC2)cc(OC)c1C | inactive: -9.71%
13 | CCCCn1nnnc1C(c1ccccc1)N1CCC(n2c(=O)[nH]c3ccccc32)CC1 (stereo not given) | inactive: 5.92%
14 | CC(C)(C)n1nnnc1C(c1cccc2ccccc12)N1CCC(n2c(=O)[nH]c3ccccc32)CC1 (stereo not given) | inactive: 4.82%
15 | O=c1[nH]c2ccccc2n1C1CCN(C(c2ccccc2)c2nnnn2C2CCCC2)CC1 (stereo not given) | inactive: -0.94%
16 | CCCN1CCC(Nc2cc(OC)cc(OC)c2)CC1 | inactive: -10.4%
17 | Cc1cc(N(CCCl)CCCl)ccc1C=O | inactive: -5.67%
18 | C/C(N)=N\P(=O)(Oc1ccccc1)Oc1ccccc1 | inactive: 10.4%
19 | c1ccc(CN2CCC(Nc3ccccc3)CC2)cc1 | inactive: -3.96%
20 | CN(C)C1(CNC(=O)c2cccc(C#N)c2)CCCCC1 | inactive: -3.87%
21 | CC(C)(C)OC(=O)N1CCC(N(C(=O)c2ccccc2)c2ccc(Cl)cc2)CC1 | inactive: 2.03%
22 | N#Cc1ccc(C(=O)NCC2(N3CCCCC3)CCCCC2)cc1 | inactive: 0.03%

Row | SMILES | inhibition
23 | CN(C)c1ccc(C(=O)NCC2(N3CCCCC3)CCCCC2)cc1 | inactive: -7.42%
24 | Cn1c(=O)[nH]cc(N(CCCl)CCCl)c1=O | inactive: 3.05%
25 | O=C(NCC1(N2CCCCC2)CCCCC1)c1ccco1 | inactive: 1.16%
26 | COc1ccc(C(c2nnnn2C2CCCCC2)N2CCC(n3c(=O)[nH]c4ccccc43)CC2)cc1 (stereo not given) | inactive: -3.17%
27 | CCN1CCC(Nc2cccc(F)c2)CC1 | inactive: 10.1%
28 | CC(C)(C)n1nnnc1C(c1ccnc2ccccc12)N1CCC(n2c(=O)[nH]c3ccccc32)CC1 (stereo not given) | inactive: 2.22%
29 | Cc1ccccc1NC1(C#N)CCN(Cc2ccccc2)CC1 | inactive: 0.13%
30 | Cc1ccc(NC2(C#N)CCN(Cc3ccccc3)CC2)cc1 | inactive: 3.7%
31 | Fc1ccccc1NC1CCN(Cc2ccccc2)CC1 | inactive: 2.11%
32 | Cc1ccc(C(=O)NCC2(N3CCCCC3)CCCCC2)o1 | inactive: -6.42%
33 | COc1cc(OC)cc(C(=O)NCC2(N3CCCCC3)CCCCC2)c1 | inactive: -3.16%
34 | O=c1[nH]c2ccccc2n1C1CCN(C(c2ccnc3ccccc23)c2nnnn2C2CCCCC2)CC1 (stereo not given) | inactive: -1.74%
35 | CCC(c1nnnn1C1CCCCC1)N1CCC(n2c(=O)[nH]c3ccccc32)CC1 (stereo not given) | inactive: 5.31%
36 | COc1cccc(C(c2nnnn2C2CCCCC2)N2CCC(n3c(=O)[nH]c4ccccc43)CC2)c1OC (stereo not given) | inactive: 8.34%
37 | CC(=O)N(c1ccccc1)C1CCNCC1 | inactive: -7.58%
38 | CN1CCC(Nc2ccc(Cl)cc2)CC1 | inactive: -1.6%
39 | CCC(CO)(C(=O)OC1CN2CCC1CC2)c1ccccc1 (stereo not given) | inactive: 6.32%
40 | COc1cccc(C(=O)N(c2cc(C)cc(C)c2)C2CCN(C(=O)OC(C)(C)C)CC2)c1 | inactive: 3.99%
41 | COc1cccc(C(c2nnnn2C2CCCC2)N2CCC(n3c(=O)[nH]c4ccccc43)CC2)c1OC (stereo not given) | inactive: 0.1%
42 | COc1cc(OC)cc(C(=O)NCC2(N3CCOCC3)CCCCC2)c1 | inactive: -3.72%
43 | O=c1[nH]c2ccccc2n1C1CCN(C(c2cc3ccccc3o2)c2nnnn2C2CCCC2)CC1 (stereo not given) | inactive: -0.89%
44 | CCCOc1ccc(C(=O)NCC2(N(C)C)CCCCC2)cc1 | inactive: -10.7%

Row | SMILES | inhibition
45 | NN(c1ccccc1)C1CCN(CCc2ccccc2)CC1 | inactive: -3.29%
46 | O=C(O)C1(Nc2ccccc2)CCN(Cc2ccccc2)CC1 | inactive: -4.21%
47 | CC(C)(C)OC(=O)N1CCC(Nc2ccccc2)CC1 | inactive: -7.89%
48 | CN1CCC(Nc2ccc(F)c(Cl)c2)CC1 | inactive: -0.21%
49 | CCOc1ncccc1C(=O)NCC1(N2CCOCC2)CCCCC1 | inactive: -8.16%
50 | CCCCn1nnnc1C(c1ccc(OC)cc1)N1CCC(n2c(=O)[nH]c3ccccc32)CC1 (stereo not given) | inactive: -6.64%
51 | CCOC(=O)N1CCC(Nc2ccc(OC)cc2)CC1 | inactive: 1.11%
52 | COc1ccc(Cl)cc1C(=O)NCC1(N2CCOCC2)CCCCC1 | inactive: 1.24%
53 | N#CC1(Nc2ccccc2)CCN(Cc2ccccc2)CC1 | inactive: 4.92%
54 | O=C(NCC1(N2CCCCC2)CCCCC1)c1ccc(Cl)s1 | inactive: -3.97%
55 | O=c1[nH]c2ccccc2n1C1CCN(C(c2cc3ccccc3o2)c2nnnn2C2CCCCC2)CC1 (stereo not given) | inactive: -5.55%
56 | O=C(OC1CN2CCC1CC2)C1c2ccccc2Oc2ccccc21 (stereo not given) | inactive: 7.55%
57 | O=C(NCC1(N2CCOCC2)CCCCC1)c1cc2ccccc2o1 | inactive: -3.32%
58 | Cc1cc(C)cc(N(C(=O)c2ccccc2)C2CCN(C(=O)OC(C)(C)C)CC2)c1 | inactive: 3.18%
59 | O=C(NCC1(N2CCCCC2)CCCCC1)c1ccc(Cl)nc1 | inactive: -1.65%
60 | O=c1[nH]c2ccccc2n1C1CCN(C(c2ccccc2OC(F)(F)F)c2nnnn2C2CCCCC2)CC1 (stereo not given) | inactive: 8.8%
61 | Cc1cccc(NC2(C#N)CCN(Cc3ccccc3)CC2)c1 | inactive: 8.95%
62 | CSc1ccccc1C(=O)NCC1(N2CCCCC2)CCCCC1 | inactive: -0.7%
63 | CCCCn1nnnc1C(CC)N1CCC(n2c(=O)[nH]c3ccccc32)CC1 (stereo not given) | inactive: 4.24%
64 | O=C(NCC1(N2CCCCC2)CCCCC1)c1cccs1 | inactive: -6.55%
65 | CCCCn1nnnc1C(c1cccs1)N1CCC(n2c(=O)[nH]c3ccccc32)CC1 (stereo not given) | inactive: 7.85%
66 | O=C(NCC1(N2CCCCC2)CCCCC1)c1ccc(=O)[nH]c1 | inactive: -13%

Row | SMILES | inhibition
67 | COc1ccc(C(=O)NCC2(N3CCCCC3)CCCCC2)c(OC)c1OC | inactive: -5.14%
68 | CC(C)(C)OC(=O)N1CCC(N(C(=O)c2ccccc2)c2ccc(F)cc2)CC1 | inactive: 0.14%
69 | CCC(c1nnnn1C1CCCC1)N1CCC(n2c(=O)[nH]c3ccccc32)CC1 (stereo not given) | inactive: -2.77%
70 | COc1ccc(C(=O)NCC2(N3CCCCC3)CCCCC2)cc1 | inactive: -10.4%
71 | O=c1[nH]c2ccccc2n1C1CCN(C(c2cccc3ccccc23)c2nnnn2C2CCCC2)CC1 (stereo not given) | inactive: 6.68%
72 | CCOC(=O)N1CCC(Nc2cccc(C)c2)CC1 | inactive: 7.78%
73 | COc1cc(C(=O)NCC2(N(C)C)CCCCC2)ccc1OC(F)F | inactive: -16.4%
74 | O=c1[nH]c2ccccc2n1C1CCN(C(c2ccccc2)c2nnnn2C2CCCCC2)CC1 (stereo not given) | inactive: -4.22%
75 | CCOC(=O)N1CCC(Nc2ccc(F)cc2)CC1 | inactive: 9.25%
76 | COc1ccc(NC2CCN(CCc3ccccc3)CC2)c(OC)c1 | inactive: -5.43%
77 | CCCCOc1ccc(C(=O)NCC2(N3CCOCC3)CCCCC2)cc1 | inactive: -2.08%
78 | O=P1(N(CCCl)CCCl)SCCCS1 | inactive: -3.62%
79 | CCCCn1nnnc1C(c1cc2ccccc2o1)N1CCC(n2c(=O)[nH]c3ccccc32)CC1 (stereo not given) | inactive: 1.99%
80 | O=C(NCC1(N2CCCCC2)CCCCC1)c1ccc(F)cc1 | inactive: -2.42%
81 | CCOc1ccc(C)cc1CN(CCCl)CCCl | inactive: 6.66%
82 | O=C1CCN(Cc2ccccc2)CC1 | inactive: -7.13%
83 | CC(C)(C)n1nnnc1C(c1ccccc1)N1CCC(n2c(=O)[nH]c3ccccc32)CC1 (stereo not given) | inactive: 9.41%
84 | COc1ccc(NC2CCN(C(=O)OC(C)(C)C)CC2)cc1 | inactive: 4.65%
85 | CC(C)c1ccc(C(=O)NCC2(N3CCOCC3)CCCCC2)cc1 | inactive: -3.62%
86 | CN1CCN(CCOC(=O)C(O)(c2ccccc2)c2ccccc2)CC1 | inactive: 2.04%
87 | CCCCn1nnnc1C(c1cccc2ccccc12)N1CCC(n2c(=O)[nH]c3ccccc32)CC1 (stereo not given) | inactive: 3.02%
88 | O=C(NCC1(N2CCOCC2)CCCCC1)c1cc(=O)[nH]c2ccccc12 | inactive: -3.81%

Row | SMILES | inhibition
89 | COc1cc(C(=O)NCC2(N3CCCCC3)CCCCC2)ccc1OC(F)F | inactive: 6.21%
90 | O=C(NCC1(N2CCCCC2)CCCCC1)c1cccc(C(F)(F)F)c1 | inactive: 1.98%
91 | CSc1ccc(C(=O)NCC2(N3CCOCC3)CCCCC2)cc1 | inactive: 2.05%
92 | O=C(NCC1(N2CCCCC2)CCCCC1)c1cccc([N+](=O)[O-])c1 | inactive: -6.06%
93 | O=c1[nH]c2ccccc2n1C1CCN(C(c2ccccc2OC(F)(F)F)c2nnnn2C2CCCC2)CC1 (stereo not given) | inactive: -1.4%
94 | N#CC1(Nc2ccccc2)CCN(CCc2ccccc2)CC1 | inactive: 4.22%
95 | CCN1CCC(Nc2ccc(Cl)cc2)CC1 | inactive: -6.68%
96 | O=C(NCC1(N2CCCCC2)CCCCC1)c1ccc(OC(F)F)cc1 | inactive: -1.14%
97 | CC(C)(C)n1nnnc1C(c1ccccc1OC(F)(F)F)N1CCC(n2c(=O)[nH]c3ccccc32)CC1 (stereo not given) | inactive: 2.94%
98 | CCCOc1ccc(C(=O)NCC2(N(C)C)CCCCC2)cc1OC | inactive: -5.91%
99 | Cc1ccc(C(=O)NCC2(N(C)C)CCCCC2)o1 | inactive: 3.91%
100 | COc1ccc(C(c2nnnn2C2CCCC2)N2CCC(n3c(=O)[nH]c4ccccc43)CC2)cc1 (stereo not given) | inactive: 9.94%
101 | CN1CCC(Nc2cccc(F)c2)CC1 | inactive: -0.04%
102 | O=C(NCC1(N2CCCCC2)CCCCC1)c1cncc(Br)c1 | inactive: -7.78%
103 | CCCCn1nnnc1C(c1ccnc2ccccc12)N1CCC(n2c(=O)[nH]c3ccccc32)CC1 (stereo not given) | inactive: -0.2%
104 | O=C(NCC1(N2CCOCC2)CCCCC1)c1cc(F)c(F)cc1Cl | inactive: -5.73%
105 | CCC(c1nnnn1C(C)(C)C)N1CCC(n2c(=O)[nH]c3ccccc32)CC1 (stereo not given) | inactive: -1.63%
106 | COc1cc(OC)c(C(=O)NCC2(N(C)C)CCCCC2)cc1OC | inactive: -3.39%
107 | CN(C)c1cccc(C(=O)NCC2(N3CCCCC3)CCCCC2)c1 | inactive: -5.61%
108 | COc1ccc(CN(CCCl)CCCl)cc1Cl | inactive: 5.22%
109 | COC(=O)C1(Nc2ccccc2)CCN(Cc2ccccc2)CC1 | inactive: 1.72%
110 | CC(C)c1ccc(NC2CCN(C(=O)OC(C)(C)C)CC2)cc1 | inactive: -0.06%
